According to PMC6359343 (Molecules, 2019):

These compounds were tested on Neuraminidase from Clostridium perfringens (bacterial neuraminidase). Conditions: fluorescence quenching.
Format: binding

SMILES | n (number of binding sites)
CC(C)=CCc1cc(-c2cc(=O)c3c(O)cc(O)c(CC=C(C)C)c3o2)cc(O)c1O [Compound 1, epimedokoreanin B] | 1.6920
CC(C)=CCc1c(O)cc(O)c2c1OC(c1ccc(O)cc1)C(O)C2=O (centres unmarked) [Compound 2, 8-(γ,γ-dimethylallyl)-5,7,4′-trihydroxydihydroflavonol] | 1.1974
CC(C)=CCc1cc(-c2cc(=O)c3c(O)cc(O)c(CC=C(C)C)c3o2)ccc1O [Compound 3, 5,7,4′-trihydroxy-8,3′-diprenyl flavone] | 1.1206
COc1ccc(-c2oc3c(CC=C(C)C)c(O[C@@H]4O[C@H](CO)[C@@H](O)[C@H](O)[C@H]4O)cc(O)c3c(=O)c2O[C@@H]2O[C@@H](C)[C@H](O)[C@@H](O)[C@H]2O)cc1 [Compound 5, icariin] | 0.8147
COc1ccc(-c2oc3c(CC=C(C)C)c(O)cc(O)c3c(=O)c2O[C@@H]2O[C@@H](C)[C@H](O)[C@@H](O)[C@H]2O[C@@H]2OC[C@@H](O)[C@H](O)[C@H]2O)cc1 [Compound 6, sagittatoside B] | 0.7006
COc1ccc(-c2oc3c(c(O)cc4oc(C(C)(C)OC)cc43)c(=O)c2OC2OC(C)C(O)C(O)C2O)cc1 [Compound 7, 5-hydroxy-2-(4-methoxyphenyl)-8-(2-methoxypropan-2-yl)-3-(((2S,3R,4R,5R,6S)-3,4,5-trihydroxy-6-methyltetra-hydro-2H-pyran-2-yl)oxy)-4H-furo[2-3-h]chromen-4-one] | 1.1733
O=C1c2c(O)cc(O)cc2O[C@H](c2ccc(O)cc2)[C@H]1O [Dihydrokaempferol, dihydrokaempferol, reference compound] | 0.5758
O=c1cc(-c2ccc(O)c(O)c2)oc2cc(O)cc(O)c12 [Luteolin, luteolin, reference compound] | 0.7662
